{"source": "patent US11096923B2", "about": "“Pharmaceutical composition containing polymyxin B/trimethoprim based therapeutics” (University of Rochester, priority 2016, dated 2021)", "test_system": "P. aeruginosa strain PA01", "type": "cell-based, Pseudomonas aeruginosa", "details": "after 40 hours at 1×MIC, 8 colonies", "experimental": "Spontaneous resistance to the indicated test agent(s) was measured for P. aeruginosa strain PA01 and S. aureus strain UAMS-1 using two liquid culture approaches. […] Growth was measured using the BacterioScan s216Dx laser microbial growth monitor, with optical measurements taken every 3 minutes over 40 hours. Following 40 hours, samples were plated for to measure viable colony forming units and re-tested for drug susceptibility.\nTo determine if these colonies represented untreated cells vs. resistant cells, 8 individual colonies from each treatment condition were randomly selected and tested for MICs.\nUsing an automated laser microbial growth monitor, the optical profiles of these cultures were measured continuously over time. […] Again 8 colonies were selected at random from each treatment group.", "data": [{"smiles": "CO[C@H]1/C=C/O[C@@]2(C)Oc3c(C)c(O)c4c(O)c(c(/C=N/N5CCN(C)CC5)c(O)c4c3C2=O)NC(=O)/C(C)=C\\C=C\\[C@H](C)[C@H](O)[C@@H](C)[C@@H](O)[C@@H](C)[C@H](OC(C)=O)[C@@H]1C", "note": "[Rifampicin, rifampicin]", "values": [{"measurement": "resistance of recovered cells on MIC retest", "result": "2-8 ×MIC"}]}]}
